Results taken from article PMC2639639, “Identification of Three Classes of Heteroaromatic Compounds with Activity against Intracellular Trypanosoma cruzi by Chemical Library Screening” (PLoS Neglected Tropical Diseases, 2009).

Key:
NIH/3T3 cells = experiment: Cytotoxicity assay (Alamar Blue) on NIH/3T3 cells; assay type: cell-based; settings: TC50 NIH/3T3 4 days / IC50 intracellular growth
Description: (§1) Cells (NIH/3T3 or HepG2) were washed and plated at a density of 50,000 cells/well of 96-well plates in 200 µl and allowed to adhere for 3 h. Twenty-four hour assays were done in DMEM without phenol red supplemented with 10% FBS and Pen-Strep-Glut, while 4-day assays were done in the same medium containing 2% FBS. Drugs were added and mixed. After 1 or 4 days, 20 µl of Alamar Blue (Biosource, Invitrogen) was added. Plates were incubated for 4 h (HepG2) or 6 h (NIH/3T3) at 37°C and fluorescence was read using a Labsystems Fluoroskan II plate reader (excitation: 544 nm, emission: 590 nm) .
(§2) To determine TC50 values, fluorescence was plotted against inhibitor concentration. TC50 was determined as the concentration at which cytotoxicity (fluorescence) was half that in the absence of inhibitor.

HepG2 cells = experiment: Cytotoxicity assay (Alamar Blue) on HepG2 cells; assay type: cell-based, human; settings: for Ratio of TC50 to IC50 (HepG2 cells at 24 h): TC50 HepG2 24 h / IC50 intracellular growth; for Ratio of TC50 to IC50 (HepG2 cells at 4 days): TC50 HepG2 4 days / IC50 intracellular growth
Description: as §1, §2

SMILES | Ratio of TC50 to IC50 (NIH/3T3 cells at 4 days) (NIH/3T3 cells) | Ratio of TC50 to IC50, HepG2 (HepG2 cells; 24 h (1 day)) | Ratio of TC50 to IC50, HepG2 (HepG2 cells; 4 days) | Ratio of TC50 to IC50 (HepG2 cells at 24 h) (HepG2 cells) | Ratio of TC50 to IC50 (HepG2 cells at 4 days) (HepG2 cells)
Cc1cc(OCCCCCCn2ccnc2)cc(C)c1Cl [CX1, 1-[6-(4-chloro-3,5-dimethylphenoxy)hexyl]-1H-imidazole] | ^*690× | over 500 fold | over 500 fold | ^*2400× | ^*530×
O=C(NN=Cc1ccc(-c2cccc(Cl)c2Cl)o1)c1ccccn1 [PCH1, N′-{[5-(2,3-dichlorophenyl)-2-furyl]methylene}-2-pyridinecarbohydrazide] | ^*>5500× | over 500 fold | over 500 fold | ^*>5500× | ^*1200×
